Consider 1 sequence from PMC3384007, “Crystal Structure of the VapBC Toxin–Antitoxin Complex from Shigella flexneri Reveals a Hetero-Octameric DNA-Binding Assembly” (Journal of Molecular Biology, 2011).

The exact form of at least one protein or probe is not confirmed.

The data set has as its system VapBC complex (VapB:His6-VapC), hetero-octamer VapB4C4 (Shigella flexneri (plasmid pMYSH6000)). In words: EMSA. Particulars: two distinct complexes, 2.5 ng/ul VapBC, 0.1 mg/ml salmon sperm DNA; recombinant protein; protein details: His6 on VapC; label: 5'-32P on SF-EMSA-f strand; probe letters rebuilt from the primers and the genome. Background: A gel shift assay detects complexes by their altered migration in electrophoresis.

Take “GGCCGGCCCAGCGTTCTCCCATGCTGCCCAGCACATAGTAATTATCCTTGTCGGTATAATAGTTCCCGACACTTCCGGCCGATCTGACCTGCGCAATACTCATCATAAACGTATATCCCTTTGACATATCCCGGCATCAATCCCACAATGGATATACACAAGACATATCCACATAAGGAGGCAAATAATGGAAACCACCGTATTTCTCAGCA (double strand) [DNA I]”: the binding result was “binds”.
